{
  "source": "paper PMC9736018",
  "target": "T1, PA3973-His6 (Pseudomonas aeruginosa PAO1161) (UniProt Q9HX43)",
  "T1 sequence (looked up, limits assumed)": "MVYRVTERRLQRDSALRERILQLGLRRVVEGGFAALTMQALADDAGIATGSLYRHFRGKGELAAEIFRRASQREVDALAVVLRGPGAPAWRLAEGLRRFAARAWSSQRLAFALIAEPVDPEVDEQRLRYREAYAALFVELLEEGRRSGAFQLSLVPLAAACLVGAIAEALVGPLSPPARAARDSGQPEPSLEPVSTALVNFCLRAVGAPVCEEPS",
  "experiment": "EMSA",
  "details": "with NS competitor DNA, 10 mM Tris-HCl pH 8.5, 10 mM MgCl2, 100 mM KCl, 0.1 mg/mL BSA, ~100 ng DNA plus ~300 ng NS competitor in 20 uL, 23 C, 30 min, 1.5% agarose, 0.5x TBE, 4 C, recombinant protein, protein details: C-terminal His6, probe letters rebuilt from the primers and the genome",
  "note": "For at least one entry, the source does not settle the construct or the ends of the probe. A negative result means that nothing was seen under these conditions. Protein sequences can lack the tags named with them.",
  "data": [
    {"sequence": "GCGGATCCTCACGCTTCAGGCTTTGCCTAAAGAGACATACAGGTCGCGCAGGCCGGCATTTCAGCCAGCCGCGGAACGGCTTCAGGCGGACTTGGTGACGATCGGCTGGCACAGCAGCCAATCGTGCAGCAGGGTCTGCAACTCTTCGAACTTGACCGGCTTGGCCATGTAGTCGCTCATGCCCGCCGCCAGGCAGCGCTCGCGATCGCCGCTGTGGCTGTGGGCGGTCAACGCCAGCACCGGCAGTTCCGCGCAGCCGGGCAGCGCGCGGATCGCCCGACAGGTGGCGAAGCCGTCCATCACCGGCATCTGGCAGTCGAGCAGTACGCCGTCGAATTCGC (double strand) [PA3973p*]", "values": [
      {"measurement": "binding result", "result": "no binding"}
    ]},
    {"sequence": "GCAAGCTTAGACCATGACTGAATCCGGATTCACTTTTTCCCAGTGAATCACGCTTCAGGCTTTGCCTAAAGAGACATACAGGTCGCGCAGGCCGGCATTTCAGCCAGCCGCGGAACGGCTTCAGGCGGACTTGGTGACGATCGGCTGGCACAGCAGCCAATCGTGCAGCAGGGTCTGCAACTCTTCGAACTTGACCGGCTTGGCCATGTAGTCGCTCATGCCCGCCGCCAGGCAGCGCTCGCGATCGCCGCTGTGGCTGTGGGCGGTCAACGCCAGCACCGGCAGTTCCGCGCAGCCGGGCAGCGCGCGGATCGCCCGACAGGTGGCGAAGCCGTCCATCACCGGCATCTGGCAGTCGAGCAGTACGCCGTCGAATTCGC (double strand) [PA3973p]", "values": [
      {"measurement": "binding result", "setting": "concentration-dependent, strongest of the targets", "result": "binds"}
    ]}
  ]
}
